Assay results: article PMC4491176, “Caenorhabditis elegans is a useful model for anthelmintic discovery” (Nature Communications, 2015)

Amino acid sequences for entries named in this document (tags omitted). A change or cut given only in a name is not applied to a line headed by its entry. Residues count along the entry.
UniProt O62215: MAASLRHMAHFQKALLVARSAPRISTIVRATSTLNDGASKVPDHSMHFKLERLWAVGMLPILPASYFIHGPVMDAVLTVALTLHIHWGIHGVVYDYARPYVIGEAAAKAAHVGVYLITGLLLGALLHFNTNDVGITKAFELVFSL
UniProt P41956: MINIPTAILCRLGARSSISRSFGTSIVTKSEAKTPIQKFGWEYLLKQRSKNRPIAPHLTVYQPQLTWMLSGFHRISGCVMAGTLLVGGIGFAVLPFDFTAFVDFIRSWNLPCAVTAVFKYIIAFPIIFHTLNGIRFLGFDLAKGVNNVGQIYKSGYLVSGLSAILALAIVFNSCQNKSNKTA
UniProt Q09508, 32-646 limits assumed: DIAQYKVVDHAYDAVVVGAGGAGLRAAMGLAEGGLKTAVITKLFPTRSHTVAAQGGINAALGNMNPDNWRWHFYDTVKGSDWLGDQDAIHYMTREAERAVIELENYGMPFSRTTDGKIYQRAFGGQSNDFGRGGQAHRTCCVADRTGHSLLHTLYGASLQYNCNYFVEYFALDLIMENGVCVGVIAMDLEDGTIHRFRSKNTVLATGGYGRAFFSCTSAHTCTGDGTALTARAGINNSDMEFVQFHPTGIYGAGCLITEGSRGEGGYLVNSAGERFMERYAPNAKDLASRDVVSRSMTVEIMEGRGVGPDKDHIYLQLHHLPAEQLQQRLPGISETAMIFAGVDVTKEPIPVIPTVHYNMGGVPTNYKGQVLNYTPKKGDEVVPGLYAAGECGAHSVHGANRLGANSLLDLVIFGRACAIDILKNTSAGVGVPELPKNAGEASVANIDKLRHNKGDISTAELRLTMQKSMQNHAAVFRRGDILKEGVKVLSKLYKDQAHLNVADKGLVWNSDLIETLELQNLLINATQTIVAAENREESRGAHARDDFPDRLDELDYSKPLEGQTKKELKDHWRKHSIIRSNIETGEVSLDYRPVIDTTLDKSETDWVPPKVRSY
UniProt Q09545: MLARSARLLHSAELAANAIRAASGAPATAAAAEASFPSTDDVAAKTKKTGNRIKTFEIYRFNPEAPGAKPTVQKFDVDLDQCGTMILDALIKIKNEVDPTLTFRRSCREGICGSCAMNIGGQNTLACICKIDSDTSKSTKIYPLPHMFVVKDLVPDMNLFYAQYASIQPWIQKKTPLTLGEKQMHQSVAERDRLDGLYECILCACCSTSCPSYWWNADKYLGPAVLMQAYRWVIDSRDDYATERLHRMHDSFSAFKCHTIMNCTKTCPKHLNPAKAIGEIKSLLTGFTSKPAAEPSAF

Molecular target: wild-type C. elegans complex II (Caenorhabditis elegans, UniProt O62215+P41956+Q09508+Q09545)
Experiment: Cell-free Complex II functional assay, mitochondria from wild-type (N2) worms
Type: biochemical
Details: read-out: In vitro Complex II IC50, strain N2, SDHC residue change none

COc1[nH]c(=O)c(C(=O)[C@@H](C)C[C@H](C)[C@@H](Cl)CCl)c(O)c1OC [Atpenin A5]
IC50: 1680 nM
